Measured values from several laboratories, pooled; numbers as filed in NIAID ChemDB.

All rows: tests on isolated targets

ICn: concentration for n% inhibition.

smiles	protein	organism	tested at	strain	read-out	value
CCCCCCCCCCCCCCCCCC(=O)OC[C@@H](COP(=O)(O)OCCNCCO[C@@]1(C(=O)O)O[C@@H]([C@H](O)[C@H](O)CO)[C@H](NC(C)=O)[C@@H](O)[C@H]1F)OC(=O)CCCCCCCCCCCCCCCCC	Sialidase	Influenza A virus	-	H5N2 A/DUCK/HK/313/78	IC50	62.5 µM
COc1cccc(C(NC(=O)c2ccc3c(c2)nc(-c2ccoc2)n3C2CCCCC2)C(=O)O)c1	RNA-dependent RNA polymerase	Poliovirus	-	-	IC50	>25 µM
O=C(N[C@@H](Cc1cc2cc(O)ccc2[nH]1)C(=O)O)c1ccc2c(c1)nc(-c1ccoc1)n2C1CCCCC1	RNA-dependent RNA polymerase	Poliovirus	-	POLIO VIRUS	IC50	>120 µM
COc1ccc([C@H](NC(=O)c2ccc3c(c2)nc(-c2ccccn2)n3C2CCCCC2)C(=O)O)cc1OC	RNA-dependent RNA polymerase	Poliovirus	-	-	IC50	>25 µM
CCCCN[C@@H]1CN(C(=O)N(C(C)C)C(C)C)C[C@@H]1C(=O)O	Neuraminidase	Influenza A virus	-	A/TOKYO	IC50	>50 µM
CC(C)(CO)NC(=O)[C@H](Cc1c[nH]c2ccc(O)cc12)NC(=O)c1ccc2c(c1)nc(-c1ccoc1)n2C1CCCCC1	RNA-dependent RNA polymerase	Poliovirus	-	-	IC50	>25 µM
CCN(C(=O)N1C[C@H](N)[C@H](C(=O)O)C1)C(C)C	Neuraminidase	Influenza A virus	-	A/TOKYO/67	Ki	57 µM
CCCCCCCCCCCCCCCCCC(=O)OC[C@@H](COP(=O)(O)OCCNCCO[C@@]1(C(=O)O)O[C@@H]([C@H](O)[C@H](O)CO)[C@H](NC(C)=O)[C@@H](O)[C@H]1F)OC(=O)CCCCCCCCCCCCCCCCC	Sialidase	Influenza A virus	-	H12N5 A/DUCK/862/5/80	IC50	100 µM
O=c1nc[nH]c(=O)c2c1ncn2[C@H]1O[C@@H](CO)[C@H](O)[C@@H]1O	NTPase/helicase	Japanese encephalitis virus	-	-	IC50	>500 µM
CC(N)C(=O)N[C@@H]1CN(C(=O)N(C(C)C)C(C)C)C[C@@H]1C(=O)O	Neuraminidase	Influenza A virus	-	A/TOKYO	IC50	>50 µM
CC(=O)c1cc(C[C@H](NC(=O)c2ccc3c(c2)nc(-c2ccoc2)n3C2CCCCC2)C(=O)O)ccc1O	RNA-dependent RNA polymerase	Poliovirus	-	-	IC50	>25 µM
O=C(N[C@@H](Cc1ccc(O)cc1)C(=O)O)c1ccc2c(c1)nc(-c1ccoc1)n2C1CCCCC1	RNA-dependent RNA polymerase	Poliovirus	-	POLIO VIRUS	IC50	79 µM
CC(C)(C)OC(=O)N1C[C@H](N)[C@H](C(=O)O)C1	Neuraminidase	Influenza A virus	-	TOKYO/3/67	Ki	59 µM
CNC(=O)N1CC(C(=O)O)C(N)C1CNC(C)=O	Neuraminidase	Influenza A virus	-	A/TOKYO/67	IC50	470 µM
O=C(N[C@@H](Cc1ccc(F)cc1)C(=O)O)c1ccc2c(c1)nc(-c1ccoc1)n2C1CCCCC1	RNA-dependent RNA polymerase	Poliovirus	-	-	IC50	>25 µM
COC(=O)C1CC(C(=O)O)NC1C(CC(C)C)NC(C)=O	Neuraminidase	Influenza A virus	-	A/TOKYO/67	Ki	0.037 µM
O=C(O)COc1ccc([C@H](NC(=O)c2ccc3c(c2)nc(-c2ccoc2)n3C2CCCCC2)C(=O)O)cc1	RNA-dependent RNA polymerase	Poliovirus	-	-	IC50	>25 µM
CCCCCCCCCCCCC/C=C/[C@@H](O)[C@H](CO[C@@H]1O[C@H](CO)[C@H](O)[C@H](OS(=O)(=O)O)[C@H]1O)NC(=O)CCCCCCCCCCCCCCCCCCCCCCC	Sialidase	Influenza A virus	200 µM	H3N8 A/equine/Tennessee/5/86	inhibition	87.9%
CCC(CC)CC(NC(C)=O)C1NC(C(=O)O)CC1C(=O)OC	Neuraminidase	Influenza A virus	-	A/TOKYO/67	IC50	0.0008 µM
CCOC(=O)CCNC(=O)N1CCCC(NC(=O)c2ccc3c(c2)nc(-c2ccoc2)n3C2CCCCC2)C1	RNA-dependent RNA polymerase	Poliovirus	-	-	IC50	>25 µM
O=C(O)COc1ccc2[nH]c(C[C@H](NC(=O)c3ccc4c(c3)nc(-c3ccoc3)n4C3CCCCC3)C(=O)O)cc2c1	RNA-dependent RNA polymerase	Poliovirus	-	POLIO VIRUS	IC50	>100 µM
CC(C)(C)OC(=O)N1CC(N)C(C(=O)O)C1	Neuraminidase	Influenza A virus	-	A/TOKYO/67	Ki	58 µM
C[C@@H](O)[C@H](NC(=O)c1ccc2c(c1)nc(-c1ccccn1)n2C1CCCCC1)C(=O)O	RNA-dependent RNA polymerase	Poliovirus	-	-	IC50	>25 µM
CCN(C(=O)N1C[C@H](O)[C@](O)(C(=O)O)C1)C(C)C	Neuraminidase	Influenza A virus	-	TOKYO/3/67	Ki	940 µM
CC(=O)NC(CC(C)C)C1NC(C(=O)[O-])CC1N	Neuraminidase	Influenza A virus	-	A/TOKYO/67	IC50	6.2 µM

Again, the opening 3 rows:

smiles	protein	organism	tested at	strain	read-out	value
CCCCCCCCCCCCCCCCCC(=O)OC[C@@H](COP(=O)(O)OCCNCCO[C@@]1(C(=O)O)O[C@@H]([C@H](O)[C@H](O)CO)[C@H](NC(C)=O)[C@@H](O)[C@H]1F)OC(=O)CCCCCCCCCCCCCCCCC	Sialidase	Influenza A virus	-	H5N2 A/DUCK/HK/313/78	IC50	62.5 µM
COc1cccc(C(NC(=O)c2ccc3c(c2)nc(-c2ccoc2)n3C2CCCCC2)C(=O)O)c1	RNA-dependent RNA polymerase	Poliovirus	-	-	IC50	>25 µM
O=C(N[C@@H](Cc1cc2cc(O)ccc2[nH]1)C(=O)O)c1ccc2c(c1)nc(-c1ccoc1)n2C1CCCCC1	RNA-dependent RNA polymerase	Poliovirus	-	POLIO VIRUS	IC50	>120 µM

Neighbouring rows are from separate reports. Percent inhibition refers to the dose given; in toxicity tests it is the harm to the cells. An empty or dashed field is not shown.